# Sequence variants of PSTVd loop 15 after infection

Data from the supplement of Wu et al. 2024, doi:10.1371/journal.ppat.1012142.

The pool varies loop 15 of the PSTVd intermediate strain in the pattern GGAAACCGNNNNNNC; wild type is GGAAACCGCUACUAC (upper and lower strand joined, each 5' to 3', the first 7 letters being the upper strand, closing pairs included).

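Three N. benthamiana plants were inoculated with the whole mutant pool. Samples came from the inoculated region at 5 days, the leaf margin at 10 and upper systemic leaves at 12.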

Values are reads per thousand in the sample; higher means more abundant, 0 means not found. Each site shows the three plants. "Pool" is the share in the plasmid pool used as inoculum, on the same scale. The inoculated region was read from the minus strand, the other sites from the plus strand. The authors trace changes outside the varied positions to PCR and sequencing errors or to mutation in the plant; presence does not show that a variant is infectious alone.

* GGAAACCGAAAGUUC (pool 0.336) -> inoculated region 0.344 / 0.241 / 0.400; leaf margin 0.194 / 0.111 / 0.100; systemic leaves 0 / 0.0303 / 0
* GGAAACCGAAUGCCC (pool 0.176) -> inoculated region 0.0491 / 0.0643 / 0.0762; leaf margin 0 / 0 / 0.0200; systemic leaves 0.0161 / 0 / 0
* GGAAACCGACCGACC (pool 0.208) -> inoculated region 0.115 / 0.0482 / 0.0762; leaf margin 0.0485 / 0 / 0.0200; systemic leaves 0 / 0 / 0
* GGAAACCGACCUUAC (pool 0.336) -> inoculated region 0.426 / 0.337 / 0.628; leaf margin 0.0970 / 0.200 / 0.200; systemic leaves 0.0322 / 0 / 0
* GGAAACCGACGUUGC (pool 0.288) -> inoculated region 0.115 / 0.209 / 0.114; leaf margin 0 / 0 / 0.0200; systemic leaves 0 / 0 / 0
* GGAAACCGACUGUUC (pool 0.192) -> inoculated region 0.557 / 0.450 / 0.552; leaf margin 0.129 / 0.111 / 0.100; systemic leaves 0.0161 / 0 / 0
* GGAAACCGAGCUGCC (pool 0.240) -> inoculated region 0.246 / 0.337 / 0.152; leaf margin 0 / 0.0223 / 0; systemic leaves 0.0161 / 0 / 0
* GGAAACCGAUGAUAC (pool 0.144) -> inoculated region 0.180 / 0.369 / 0.438; leaf margin 0.0970 / 0.0445 / 0.220; systemic leaves 0.0483 / 0 / 0
* GGAAACCGCCUCCGC (pool 0.208) -> inoculated region 0.0819 / 0.225 / 0.114; leaf margin 0 / 0 / 0.0200; systemic leaves 0 / 0 / 0
* GGAAACCGCCUCUUC (pool 0.144) -> inoculated region 0.115 / 0.145 / 0.0952; leaf margin 0.0162 / 0 / 0; systemic leaves 0 / 0 / 0
* GGAAACCGCGAGCCC (pool 0.256) -> inoculated region 0.0164 / 0.129 / 0.0381; leaf margin 0 / 0 / 0.0200; systemic leaves 0.0161 / 0 / 0
* GGAAACCGCGAGGUC (pool 0.0480) -> inoculated region 0.278 / 0.418 / 0.476; leaf margin 0.0485 / 0.0668 / 0.160; systemic leaves 0.0322 / 0 / 0.137
* GGAAACCGCUAAACC (pool 0.192) -> inoculated region 0.131 / 0.0964 / 0.0571; leaf margin 0.0162 / 0 / 0.0200; systemic leaves 0.0161 / 0 / 0
* GGAAACCGCUUCCAC (pool 0.144) -> inoculated region 0.147 / 0.0803 / 0.114; leaf margin 0 / 0 / 0.0200; systemic leaves 0 / 0 / 0
* GGAAACCGGCAACCC (pool 0.256) -> inoculated region 0.115 / 0.0482 / 0.0571; leaf margin 0 / 0 / 0.0200; systemic leaves 0 / 0 / 0
* GGAAACCGGCAUGGC (pool 0.224) -> inoculated region 0.0328 / 0.0964 / 0.0190; leaf margin 0 / 0 / 0.0200; systemic leaves 0 / 0 / 0
* GGAAACCGGCCGACC (pool 0.240) -> inoculated region 0.0819 / 0.0803 / 0.0381; leaf margin 0 / 0 / 0; systemic leaves 0 / 0 / 0
* GGAAACCGGCUGGUC (pool 0.160) -> inoculated region 0.0819 / 0.0964 / 0.0762; leaf margin 0 / 0 / 0.0401; systemic leaves 0.0161 / 0 / 0.0228
* GGAAACCGGGAGUCC (pool 0.336) -> inoculated region 0.393 / 0.241 / 0.190; leaf margin 0.0485 / 0.0891 / 0.0401; systemic leaves 0.0161 / 0.0151 / 0.0684
* GGAAACCGGGGAAAC (pool 0.192) -> inoculated region 0.147 / 0.0643 / 0.0762; leaf margin 0.0323 / 0 / 0; systemic leaves 0 / 0 / 0
* GGAAACCGGUCUAUC (pool 0.192) -> inoculated region 0.0655 / 0.161 / 0.152; leaf margin 0 / 0.0223 / 0.0401; systemic leaves 0 / 0 / 0
* GGAAACCGUAAGUCC (pool 0.208) -> inoculated region 0.213 / 0.273 / 0.305; leaf margin 0.113 / 0.0445 / 0.120; systemic leaves 0.0805 / 0.0151 / 0.114
* GGAAACCGUCAAAGC (pool 0.176) -> inoculated region 0.0819 / 0.0964 / 0.0381; leaf margin 0 / 0 / 0.100; systemic leaves 0 / 0 / 0
* GGAAACCGUCCCUGC (pool 0.224) -> inoculated region 0.164 / 0.0803 / 0.0571; leaf margin 0.0323 / 0 / 0.0200; systemic leaves 0.0161 / 0 / 0
* GGAAACCGUCGCUCC (pool 0.288) -> inoculated region 0.0491 / 0.0803 / 0.114; leaf margin 0 / 0 / 0.0200; systemic leaves 0 / 0 / 0
* GGAAACCGUGAGACC (pool 0.256) -> inoculated region 0.295 / 0.241 / 0.267; leaf margin 0.146 / 0.0891 / 0.260; systemic leaves 0.0644 / 0 / 0
* GGAAACCGUGCACGC (pool 0.272) -> inoculated region 0.164 / 0.177 / 0.133; leaf margin 0 / 0.0223 / 0; systemic leaves 0.0161 / 0 / 0
* GGAAACCGUGGAAAC (pool 0.208) -> inoculated region 0.0328 / 0.0803 / 0.0762; leaf margin 0 / 0.0223 / 0; systemic leaves 0.0161 / 0 / 0
* GGAAACCGUGGCAAC (pool 0.176) -> inoculated region 0.0655 / 0.112 / 0.114; leaf margin 0.0485 / 0.0223 / 0; systemic leaves 0.0161 / 0 / 0
* GGAAACCGUGGCUGC (pool 0.272) -> inoculated region 0.0655 / 0.0803 / 0.0952; leaf margin 0 / 0 / 0.0200; systemic leaves 0 / 0 / 0
* GGAAACCGUUGCGUC (pool 0.176) -> inoculated region 0.0491 / 0.0482 / 0.0762; leaf margin 0.0485 / 0 / 0.0200; systemic leaves 0 / 0 / 0
* GGAAACCGUUGUAGC (pool 0.208) -> inoculated region 0.0983 / 0.0964 / 0.209; leaf margin 0 / 0.0223 / 0; systemic leaves 0.0161 / 0 / 0

A selection of 2 entries from above:

For GGAAACCGUGGCUGC (pool 0.272) the result was inoculated region 0.0655 / 0.0803 / 0.0952; leaf margin 0 / 0 / 0.0200; systemic leaves 0 / 0 / 0.
For GGAAACCGACCUUAC (pool 0.336) the result was inoculated region 0.426 / 0.337 / 0.628; leaf margin 0.0970 / 0.200 / 0.200; systemic leaves 0.0322 / 0 / 0.

For reference, wild type rose from 33.9 per thousand in the pool to 202, 200, 159 (inoculated region), 724, 746, 710 (leaf margin) and 856, 883, 880 (systemic leaves). Samples held 43,870 to 66,106 reads, so the smallest values rest on one or two reads.